Measurements as given in US7691572B2, “Method and kit for detecting resistance to antiviral drugs” (priority 1998, dated 2010).

System: HIV-1 RT
Experiment: Amp-RT assay, AZT-TP and other NRTI-TPs, reference viruses
Assay type: biochemical

SMILES: Cc1cn([C@H]2C[C@H](N=[N+]=[N-])[C@@H](CO[P@](=O)(O)O[P@](=O)(O)OP(=O)(O)O)O2)c(=O)[nH]c1=O
- fold resistance (IC50) as compared to the mean IC values of WT HIV-1 (MNR HIV-1SUM12 (F77L, F116Y, Q151M)): 22 fold and (22) fold
- fold resistance (IC50) as compared to the mean IC values of WT HIV-1 (MNR HIV-1SUM13 (A62V, V75I, F77L, F116Y, Q151M)): 36 fold and (36) fold

A number of entries come with more than one value. This list holds those alone. There may be further records. The values listed for one entry do not match, cause unknown; some may be repeats, others may stem from another dose, organism or construct than stated.
